Measured values reported in patent US5858687A (priority 1995, dated 1999).

How the values were obtained:
Neuro-2a cells = assay: Suspension-cell tube assay (Neuro-2a in agar, methylene blue decolorization)
[1] = tested on: human neuroblastoma SK-N-MC; assay: Cell bioassay in human neuroblastoma SK-N-MC cells; details: FIG. 9A
[2] = tested on: Mouse neuroblastoma cells Neuro-2a

CTX3C
amount detected in suspension-cell tube assay (Neuro-2a cells; 4 hour, ouabain/veratridine present, FIG. 15): 0.15 ng
methylene blue decolorization in the presence of ouabain and veratridine (Neuro-2a cells; tube A, 4 hours): inhibited decolorization of methylene blue
methylene blue decolorization in the absence of ouabain/veratridine (Neuro-2a cells; tube B): lack of effect
cytotoxicity in the presence of ouabain and veratridine [1]: dose-dependant cytotoxicity

brevetoxin PbTx-1
cytotoxicity in the absence of ouabain/veratridine ([2]; no ouabain/veratridine, highest concentration 10 ng/10 μl, 18 hours exposure, FIG. 4B): not cytotoxic
cytotoxicity at 18 hours ([2]; ouabain/veratridine present, 18 hours): essentially total
earliest time at which titratable cytotoxicity was observed ([2]; ouabain/veratridine present, FIG. 4A): 4 h
ID50 7 HR ([2]; positive control, 7 hr, three runs): 0.9 ng
ID90 22 HR ([2]; positive control, 22 hr, three runs): 0.8 ng
